Patent US5688767A, “Treatment of endotoxin-associated disorders with cationic peptides” (priority 1996, dated 1997)
Converted amounts (≈) assume the structure as drawn.

Experiments:
E. coli = format: cell-based, Escherichia coli; settings: strain SC9252, Polymyxin resistant
Procedure: (§1) The minimum inhibitory concentrations of (MIC) of CEME, CEMA and melittin were determined for a number of different bacteria (Table 2). Briefly, cells were grown overnight at 37° C. in LB-S (Luria broth without any salt supplement) and diluted one in 10,000 in the same medium to give concentrations of about 10^4 to 10^5 CFU/ml. The broth dilutions were set up in a 96 well microtiter plate by putting 200 μl of LB-S containing the initial concentration of antibiotic or compound in column 1 and 100 μl of the same medium in columns 2-12. The compounds were diluted by taking 100 μl of broth from column 1 and mixing it with column 2, resulting in a one in two dilution. This was continued to column 10. Finally, 10 μl of bacteria were pipetted into columns 1-11, and the plates incubated overnight at 37° C. The next day the plates were scored for growth in the wells, and the MIC determined.
(§2) Bacteria included the Bort strain of E. coli (Bortolussi, et al., Inf. Immun., 25:293, 1979) that was originally derived from a case of neonatal meningitis, and which is therefore considered a relevant pathogenic strain to study, and the 0111:B4 strain of E. coli (kindly provided by Dr. D. Morrison) which is a standard source of endotoxin. (Kelly, et al., Inf. Immun., 59:4491, 1991). […]

E. cloacae = format: cell-based, Enterobacter cloacae; settings: strain 218R1, β-lactam resistant
Procedure: as §1, §2

With `CC[C@H](C)[C@H](NC(=O)CN)C(=O)NCC(=O)N[C@@H](C)C(=O)N[C@H](C(=O)N[C@@H](CC(C)C)C(=O)N[C@@H](CCCCN)C(=O)N[C@H](C(=O)N[C@@H](CC(C)C)C(=O)N[C@H](C(=O)N[C@H](C(=O)NCC(=O)N[C@@H](CC(C)C)C(=O)N1CCC[C@H]1C(=O)N[C@@H](C)C(=O)N[C@@H](CC(C)C)C(=O)N[C@H](C(=O)N[C@@H](CO)C(=O)N[C@@H](Cc1c[nH]c2ccccc12)C(=O)N[C@H](C(=O)N[C@@H](CCCCN)C(=O)N[C@@H](CCCNC(=N)N)C(=O)N[C@@H](CCCCN)C(=O)N[C@@H](CCCNC(=N)N)C(=O)N[C@@H](CCC(N)=O)C(=O)N[C@@H](CCC(N)=O)C(N)=O)[C@@H](C)CC)[C@@H](C)CC)[C@@H](C)O)[C@@H](C)O)C(C)C)C(C)C` [Melittin, melittin] the MIC (E. coli) was 8 µg/mL (≈ 2.81 µM) and the MIC (E. cloacae) was 8 µg/mL (≈ 2.81 µM).
